{
  "source": "patent US20250283871A1",
  "about": "“COMPOSITIONS AND METHODS FOR MODULATING THE INTERACTION BETWEEN SS18-SSX FUSION ONCOPROTEIN AND NUCLEOSOMES” (Dana-Farber Cancer Institute, Inc., priority 2020, published 2025)",
  "molecules": {"B1": {"name": "SPNS1 (protein, UniProt Q9H2V7 2-528, looked up)", "Protein spinster homolog 1": "AGSDTAPFLSQADDPDDGPVPGTPGLPGSTGNPKSEEPEVPDQEGLQRITGLSPGRSALIVAVLCYINLLNYMDRFTVAGVLPDIEQFFNIGDSSSGLIQTVFISSYMVLAPVFGYLGDRYNRKYLMCGGIAFWSLVTLGSSFIPGEHFWLLLLTRGLVGVGEASYSTIAPTLIADLFVADQRSRMLSIFYFAIPVGSGLGYIAGSKVKDMAGDWHWALRVTPGLGVVAVLLLFLVVREPPRGAVERHSDLPPLNPTSWWADLRALARNPSFVLSSLGFTAVAFVTGSLALWAPAFLLRSRVVLGETPPCLPGDSCSSSDSLIFGLITCLTGVLGVGLGVEISRRLRHSNPRADPLVCATGLLGSAPFLFLSLACARGSIVATYIFIFIGETLLSMNWAIVADILLYVVIPTRRSTAEAFQIVLSHLLGDAGSPYLIGLISDRLRRNWPPSFLSEFRALQFSLMLCAFVGALGGAAFLGTAIFIEADRRRAQLHVQGLLHEAGSTDDRIVVPQRGRSTRVPVASVLI"}},
  "tested_on": "BAF complex subunits and histone proteins",
  "assay": "Mass spectrometry proteomics of purified HA-SS18 WT and HA-SS18-SSX1 complexes (Tables 5A-5E)",
  "set-up": "species or system human",
  "details": "HEK-293T",
  "key": {"[1]": {"details": "HA-SS18SSX1_NE_peptides (Table 5B), HA-SS18-SSX1 BAF complex purification from soluble nuclear extract"}, "[2]": {"details": "HA-SS18WT_NE_peptides: proteins co-purified with HA-SS18 WT from nuclear extract (NE)"}},
  "data": [
    {"molecule": "B1", "values": [
      {"measurement": "AVG", "setting": "[1]", "result": 2.3667},
      {"measurement": "Total (peptides)", "setting": "[1]", "result": 1},
      {"measurement": "Unique (peptides)", "setting": "[1]", "result": 1},
      {"measurement": "AVG", "setting": "[2]", "result": 2.6569},
      {"measurement": "Total (peptides)", "setting": "[2]", "result": 2},
      {"measurement": "Unique (peptides)", "setting": "[2]", "result": 2}
    ]}
  ]
}
